Measured values from several laboratories, pooled; numbers as filed in NIAID ChemDB.

All rows: enzyme or target tests; agent: HIV-1; target: Reverse transcriptase; measure: fold resistance

Fold resistance has wild type as its base. Conditions beyond the fields shown may differ between rows. Blank or dashed fields: not listed here. a–b is a range or a potency band.

SMILES,strain,mutations,method,result
CCc1ccc(-n2c(I)nnc2SCC(=O)Nc2ccc(S(N)(=O)=O)cc2Cl)c2ccccc12,-,RT-Y188L,nucleotide incorporation / radiometric,>2
CCN1c2ncc(CCOc3ccc(C4CC4C(=O)O)c4ccccc34)cc2C(=O)N(C)c2ccc(F)nc21,-,RT-K103N Y181C,nucleotide incorporation / radiometric,1–10
Cc1cc(S(N)(=O)=O)ccc1NC(=O)CSc1nnc(CF)n1-c1c(C)cc(C)c2ccccc12,-,RT-Y181C,nucleotide incorporation / radiometric,>2
CCN1c2ncc(CCOc3ccc(C(=O)O)c4c3CCC4)cc2C(=O)N(C)c2ccc(Cl)nc21,-,RT-V106A,nucleotide incorporation / radiometric,1–10
CCc1cc(CCc2nc3ccccc3o2)c(=O)[nH]c1C,-,RT-Y188F,nucleotide incorporation,0.7
CCN1c2ncc(CCOc3ccc(C(=O)Nc4ccccc4C(=O)O)cc3C)cc2C(=O)N(C)c2cccnc21,IIIB,RT-K103N Y181C,nucleotide incorporation / radiometric,>2
CCN1c2ncc(CCOc3ccc(C(=O)O)c4c3CCCC4)cc2C(=O)N(C)c2ccc(Cl)nc21,-,RT-V106A,nucleotide incorporation / radiometric,>10
CCN1c2ncc(CCOc3ccc(NC(=O)Nc4ccc(C(=O)O)cc4)cc3C)cc2C(=O)N(C)c2cccnc21,IIIB,RT-K103N Y181C,nucleotide incorporation / radiometric,1
NS(=O)(=O)c1ccc(NC(=O)CSc2nnc(Br)n2-c2ccc(C3CC3)cc2)c(Cl)c1,-,RT-Y188L,nucleotide incorporation / radiometric,>2
CCN1c2ncc(CCOc3ccc(-c4cccc(C(=O)O)c4)cc3)cc2C(=O)N(C)c2cccnc21,IIIB,RT-K103N Y181C,nucleotide incorporation / radiometric,>2
CCN1c2ncc(CCOc3cccc4c3ccc[n+]4[O-])cc2C(=O)Nc2c(C)cc(Cl)nc21,-,RT-Y181C,nucleotide incorporation / radiometric,1.8
CCOC(=O)CN(C)C(=O)c1ccc(NC(=O)CSc2nnc(Br)n2-c2ccc(CC)c3ccccc23)c(Cl)c1,-,RT-Y188L,nucleotide incorporation / radiometric,>2
CCN1c2ncc(CCOc3ccc(S(=O)(=O)NCC(=O)O)c4ccccc34)cc2C(=O)N(C)c2cccnc21,-,RT-K103N Y181C,nucleotide incorporation / radiometric,1
CCN1c2ncc(CCOc3ccc(-c4ccc(C(=O)O)cn4)cc3C)cc2C(=O)N(C)c2cccnc21,IIIB,RT-K103N Y181C,nucleotide incorporation / radiometric,1
CCN1c2ncc(CCOc3ccc(C(=O)O)c4c3CCCC4)cc2C(=O)N(C)c2ccc(OC)nc21,-,RT-V106A,nucleotide incorporation / radiometric,>10
Cc1cc(-c2ccc(CC(=O)O)cc2)ccc1OCCc1cnc2c(c1)C(=O)N(C)c1cccnc1N2,IIIB,RT-K103N Y181C,nucleotide incorporation / radiometric,>2
Cc1cc(S(=O)(=O)O)ccc1NC(=O)CSc1nnc(C(F)F)n1-c1ccc(C)c2c1CCCC2,-,RT-Y181C,nucleotide incorporation / radiometric,>2
CCN1c2ncc(CCOc3ccc(NC(=O)/C=C/C(=O)O)cc3C)cc2C(=O)N(C)c2cccnc21,IIIB,RT-K103N Y181C,nucleotide incorporation / radiometric,>1
O=C(CSc1nnc(Br)n1-c1ccc(C2CC2)cc1OC(F)(F)F)Nc1ccc(S(=O)(=O)O)cc1Cl,-,RT-Y181C,nucleotide incorporation / radiometric,>1
CCN1c2ncc(CCOc3ccc(-c4ccc(C(=O)O)cc4)c(C)c3)cc2C(=O)N(C)c2cccnc21,IIIB,RT-K103N Y181C,nucleotide incorporation / radiometric,>2
O=C(O)CCNC(=O)c1ccc(NC(=O)CSc2nnc(Br)n2-c2ccc(C3CC3)c3ccccc23)c(Cl)c1,-,RT-Y188L,nucleotide incorporation / radiometric,>2